Compound potency records, mixed from different reports. Data source: NIAID ChemDB in PubChem.

Common to all: toxicity to cultured cells; cells: MT-4; read-out: CC50

Blank or dashed fields: not listed here. Lines come from different laboratories, so protocols vary. CCn: concentration that lowers growth or viability of the cells by n%.

compound | method | value
CC.CC(C)C[C@H](NC(=O)[C@@H](NC(=O)[C@H](Cc1c[nH]c2ccccc12)NC(=O)CCCCCCC(=O)Nc1ccn([C@H]2CC[C@@H](CO[Si](c3ccccc3)(c3ccccc3)C(C)(C)C)O2)c(=O)n1)C(C)C)[C@@H](O)CC(=O)NC(Cc1ccccc1)c1ccccc1 |  | 50 µM
Cc1cn(N2C[C@H](CO)[C@H]2CO)c(=O)[nH]c1=O |  | >100 µg/mL
C=C(C)[C@@H]1CC[C@]2(C(=O)NCCCCCCNC(C)=O)CC[C@]3(C)[C@H](CC[C@@H]4[C@@]5(C)CC[C@H](OC(=O)CC(C)(C)C(=O)O)C(C)(C)[C@@H]5CC[C@]43C)[C@@H]12 |  | 7.5 µM
Clc1ccc2c(c1)nnc1ccnn12 |  | >200 µM
O=C(O)c1cn(C2CC2)c2c(OC(F)F)c(N3CCN(c4ncccn4)CC3)c(F)cc2c1=O |  | 8.47 µg/mL
Cn1nccc1CN1CCn2c(nc(C(=O)NCc3ccc(F)cc3)c(O)c2=O)C1(C)C | microscopy | >1 µM
Nc1ccn([C@H]2C[C@H]3OC[C@@H](O)[C@H]3O2)c(=O)n1 |  | >100 µM
CNc1cc2c(=O)c(C(=O)O)cn(C)c2cc1N1CCN(c2ccccn2)CC1 | MTT | 20.5 µM
CC(=O)Nn1cc(C(=O)O)c(=O)c2cc(N)c(N3CCN(c4ccccn4)CC3)cc21 | MTT | >295.9 µM
CC(C)CN(C[C@@H](O)[C@H](Cc1ccccc1)NC(=O)OC1CCOC1)S(=O)(=O)c1ccc2nc(N)sc2c1 | MTT | <100 µM
CC(=O)NS(=O)(=O)c1ccc(-c2c3nc(c(-c4ccc(S(=O)(=O)NC(C)=O)cc4)c4ccc([nH]4)c(-c4ccc(S(=O)(=O)NC(C)=O)cc4)c4nc(c(-c5ccc(S(=O)(=O)NC(C)=O)cc5)c5ccc2[nH]5)C=C4)C=C3)cc1 |  | 50 µg/mL
N#Cc1cnn2c1nnc1ccccc12 |  | >200 µM
COc1ccc(CCN2C(=O)/C(=C\c3ccc(N(C)C)cc3)N(CCc3ccc(OC)c(OC)c3)C2=S)cc1OC | MTT | 19.1 µg/mL
CCOC(=O)c1cc(-c2cccc(N)c2)n(-c2cccc(OC)c2)c1C |  | 32 µM
Cc1cccc(Nn2c(-c3ccccc3)c(C(C)C)[nH]c2=S)c1 |  | 42.63 µM
COc1ccc(CSc2nc(C(=O)c3ccc(Br)cc3)c(C)c(=O)[nH]2)cc1 | MTT | 201 µM
CC(C)C(N)C(=O)O[C@@H](C[C@@H](Cc1ccccc1)C(=O)N[C@H]1c2ccccc2C[C@H]1OC(=O)C(N)C(C)C)CN1CCN(Cc2cccnc2)C[C@H]1C(=O)NC(C)(C)C |  | 0.08 µM
CC(=O)NC1CN(C)CCn2c1nc(C(=O)NCc1ccc(F)cc1)c(O)c2=O | microscopy | >1 µM
COc1ccc(CSc2nc(C(=O)c3ccc(F)cc3)c(C)c(=O)[nH]2)cc1 | MTT | 225 µM
CC1c2nc(C(=O)NCc3ccc(F)cc3)c(O)c(=O)n2CCN1C(=O)C(=O)N(C)C | microscopy | >1 µM
CCn1cc(C(=O)O)c(=O)c2ccc(N3CCN(c4ncccn4)CC3)c(OC(F)F)c21 |  | >25 µg/mL
COc1cccc(N2CCN(c3cc4c(cc3N)c(=O)c(C(=O)O)cn4C3CC3)CC2)c1 | MTT | 4.21 µM
CCn1cc(C(=O)O)c(=O)c2cc(F)c(N3CCN(c4ccccc4OC)CC3)c(OC(F)F)c21 |  | 5.4 µM
CN1CCN(C(=O)C(=O)N(C)C2COCCn3c2nc(C(=O)NCc2ccc(F)cc2)c(O)c3=O)CC1 | microscopy | >1 µM
O=c1[nH]c(=O)n(COCc2ccccc2)c2c1COC2c1ccccc1 | MTT | >100 µM
COCCOCCOCCOCCOCCOCCOCCOCCOCCOCCOCCOCCOCCOCCOCCOCCOCCOCCOCCOCCOCCOCCOCCOCCOCCOCCOCCOCCOCCOCCOCCOCCOCCOCCOCCOCCOCCOCCOCCOCCOCCOCCOCCOCCOC(=O)CCC(=O)O[C@H](CN1C[C@H]2CCCC[C@H]2C[C@H]1C(=O)NC(C)(C)C)[C@H](Cc1ccccc1)NC(=O)[C@H](CC(N)=O)NC(=O)c1ccc2ccccc2n1 |  | >0.01 µM
CC(C)C[C@H](NC(=O)[C@@H](NC(=O)[C@H](Cc1c[nH]c2ccccc12)NC(=O)CCCCC(=O)Nc1ccn([C@H]2CC[C@@H](CO)O2)c(=O)n1)C(C)C)[C@@H](O)CC(=O)NC(Cc1ccccc1)c1ccccc1 |  | 100 µM
N#Cc1cc(Cl)cc(Oc2cc(OCc3[nH]nc4cccnc34)ccc2Cl)c1 |  | >8.3 µM
CCOC(=O)c1cnn2c1n[n+]([O-])c1ccccc12 |  | 143 µM
Cc1cn([C@H]2O[C@@H](CO)C[C@@H]2N=[N+]=[N-])c(=O)[nH]c1=O |  | >100 µM
[O-][n+]1nc2c(Br)cnn2c2ccc(Cl)cc21 |  | >200 µM
C=Cn1cc(C(=O)O)c(=O)c2ccc(N3CCN(c4ccccn4)CC3)cc21 | MTT | 1.48 µM
CCOC(=O)c1cccn1CC(O)CNc1ccccc1 |  | >200 µM
Nc1cc2c(=O)c(C(=O)O)cn(C3CC3)c2cc1N1CCN(c2ccccn2)CC1 | MTT | 4.19 µM
Cc1cn([C@H]2C[C@H](N=[N+]=[N-])[C@@H](CO)O2)c(=O)[nH]c1=O | MTT | 167 µg/mL
Nc1ccn([C@H]2CO[C@@H](CO)S2)c(=O)n1 |  | >100 µM
CN(C)n1cc(C(=O)O)c(=O)c2cc(N)c(N3CCN(c4ccccn4)CC3)cc21 | MTT | 1.15 µM
CCOC(=O)c1cn(CC(O)CNc2ccccc2C(=O)OC)cc1-c1ccccc1 |  | 37 µM
CC(=O)c1ccc(C)cc1NC(C(N)=O)c1c(Cl)cccc1Cl |  | >10 µM
CCOC(=O)c1cn(CC(O)CSc2ccccc2)cc1-c1ccccc1 |  | 75.3 µM
CNc1cc2c(=O)c(C(=O)O)cn(N(C)C)c2cc1N1CCN(c2ccccn2)CC1 | MTT | 178 µM
COc1cccc(-c2cc(C(C)=O)c(C)n2-c2cccc(N=[N+]=[N-])c2)c1 |  | 8.7 µM
Cc1c(C(=O)O)c(=O)c2cc(N)c(N3CCN(c4ccccn4)CC3)cc2n1C | MTT | 177 µM
COc1ccc(CSc2nc(C(=O)c3cccc(Cl)c3)c(C)c(=O)[nH]2)cc1 | MTT | >151 µM
C=Cn1cc(C(=O)O)c(=O)c2ccc(N3CCN(c4nc5ccccc5s4)CC3)cc21 | MTT | 0.05 µM
O=c1ccn([C@H]2C=C(CO)CO2)c(=O)[nH]1 |  | >100 µg/mL
CCOC(=O)c1c(C)n([C@H]2C[C@@H]2c2ccccc2)c2ccc(OC(C)=O)c(O)c12 | MTT | 50 µM
CC1CNC(=O)c2ccccc2SSc2ccccc2C(=O)N1 |  | 15.9 µg/mL
CNc1nc2ccc(S(=O)(=O)N(CC(C)C)C[C@@H](O)[C@H](Cc3ccccc3)NC(=O)O[C@H]3CO[C@H]4OCC[C@H]43)cc2s1 | MTT | 70.79 µM
COc1ccc(CCN2C(=O)/C(=C\c3cccc(Cl)c3)N(CCc3ccc(OC)c(OC)c3)C2=S)cc1OC | MTT | 59.95 µg/mL
Cn1cc(C(=O)O)c(=O)c2cc(N)c(N3CCN(c4ccccn4)CC3)cc21 | MTT | 2.21 µM
CNc1nc2ccc(S(=O)(=O)N(CC(C)C)C[C@@H](O)[C@H](Cc3ccccc3)NC(=O)O[C@H]3CCOC3)cc2s1 | MTT | <100 µM
[N-]=[N+]=N[C@H]1C[C@@H](CO)O[C@H]1n1cnc2c(NC3CC3)ncnc21 |  | >125 µg/mL
CC(=O)NS(=O)(=O)c1c(C)cc(C)c(-c2c3nc(c(-c4c(C)cc(C)c(S(=O)(=O)NC(C)=O)c4C)c4ccc([nH]4)c(-c4c(C)cc(C)c(S(=O)(=O)NC(C)=O)c4C)c4nc(c(-c5c(C)cc(C)c(S(=O)(=O)NC(C)=O)c5C)c5ccc2[nH]5)C=C4)C=C3)c1C |  | 75 µg/mL
O=[N+]([O-])c1cnn2c1n[n+]([O-])c1ccccc12 |  | 1.8 µM
O=C1CSC(c2c(Cl)cccc2Cl)N1c1ccccn1 | MTT | >14.7 µM
CC(C)(C)NC(=O)[C@@H]1C[C@@H]2CCCC[C@@H]2CN1C[C@@H](OC(=O)COc1ccc(CC(NC(=O)OC(C)(C)C)C(=O)OC(C)(C)C)cc1)[C@H](Cc1ccccc1)NC(=O)[C@H](CC(N)=O)NC(=O)c1ccc2ccccc2n1 |  | >0.01 µM
C=C(C)[C@@H]1CC[C@]2(C(=O)NCCCCCCCNC(C)=O)CC[C@]3(C)[C@H](CC[C@@H]4[C@@]5(C)CC[C@H](OC(=O)CC(C)(C)C(=O)O)C(C)(C)[C@@H]5CC[C@]43C)[C@@H]12 |  | 8 µM
COc1ccc(/C=C2\C(=O)N(CCc3ccc(OC)c(OC)c3)C(=S)N2CCc2ccc(OC)c(OC)c2)cc1 | MTT | 78.75 µg/mL
CCOC(=O)c1cc(-c2cccc(N=[N+]=[N-])c2)n(-c2cccc(OC)c2)c1C |  | 47 µM
CCOC(=O)c1cn(CC(O)CNc2ccccc2Cl)cc1-c1ccccc1 |  | 47.3 µM
O=[N+]([O-])c1cnn2c1nnc1cc(Cl)ccc12 |  | 1.4 µM
C=C(C)[C@@H]1CC[C@]2(C(=O)O)CC[C@]3(C)[C@H](CC[C@@H]4[C@@]5(C)CC[C@H](OC(=O)CC(C)(C)C(=O)O)C(C)(C)[C@@H]5CC[C@]43C)[C@@H]12 |  | 7.5 µM
CC(C)C(NC(=O)OC(C)(C)C)C(=O)O[C@@H](C[C@@H](Cc1ccccc1)C(=O)N[C@H]1c2ccccc2C[C@H]1OC(=O)C(NC(=O)OC(C)(C)C)C(C)C)CN1CCN(Cc2cccnc2)C[C@H]1C(=O)NC(C)(C)C |  | 0.08 µM
COc1ccc(CCN2C(=O)/C(=C\c3ccccc3)N(CCc3ccc(OC)c(OC)c3)C2=S)cc1OC | MTT | 56.6 µg/mL
CN1CCN(S(=O)(=O)N(C)C2COCCn3c2nc(C(=O)NCc2ccc(F)cc2)c(O)c3=O)CC1 | microscopy | >1 µM
CCOCn1c2c(c(=O)[nH]c1=O)CCC2c1ccccc1 | MTT | >100 µM
COc1cccc(Nn2cnc(C)c2-c2ccccc2)c1 |  | 34.44 µM
Cc1cn([C@H]2O[C@@H](CO)C[C@H]2O)c(=O)[nH]c1=O |  | >100 µM
CC[C@H](C)[C@H](NC(=O)OC(C)(C)C)C(=O)NNc1ccn([C@H]2CC[C@@H](CO)O2)c(=O)n1 |  | >100 µM
COc1ccc(CCN2C(=O)/C(=C\c3ccc(F)cc3)N(CCc3ccc(OC)c(OC)c3)C2=S)cc1OC | MTT | 18 µg/mL
CCn1cc(C(=O)O)c(=O)c2cc(F)c(N3CCN(c4ncccn4)C(C)C3)c(OC(F)F)c21 |  | 10.5 µg/mL
Cc1ncn(Nc2ccccc2)c1C |  | 351 µM
C=C(C)[C@@H]1CC[C@]2(C(=O)NCCCCCNC(C)=O)CC[C@]3(C)[C@H](CC[C@@H]4[C@@]5(C)CC[C@H](OC(=O)CC(C)(C)C(=O)O)C(C)(C)[C@@H]5CC[C@]43C)[C@@H]12 |  | 9 µM
O=C(O)c1cn(C2CC2)c2c(OC(F)F)c(N3CCN(c4ccccc4)CC3)c(F)cc2c1=O |  | 3 µg/mL
Brc1cnn2c1nnc1ccccc12 |  | >200 µM
COc1ccccc1N1CCN(c2c(F)cc3c(=O)c(C(=O)O)cn(C)c3c2CN(C)C)CC1 |  | 3.5 µM
Clc1cccc(Nn2cnc3c2CCCC3)c1 |  | 67.29 µM

5 of the rows above, restated:

compound	method	value
Cc1cn([C@H]2O[C@@H](CO)C[C@@H]2N=[N+]=[N-])c(=O)[nH]c1=O		>100 µM
CCOCn1c2c(c(=O)[nH]c1=O)CCC2c1ccccc1	MTT	>100 µM
COc1ccc(CCN2C(=O)/C(=C\c3ccc(N(C)C)cc3)N(CCc3ccc(OC)c(OC)c3)C2=S)cc1OC	MTT	19.1 µg/mL
CCOC(=O)c1cc(-c2cccc(N)c2)n(-c2cccc(OC)c2)c1C		32 µM
CCn1cc(C(=O)O)c(=O)c2cc(F)c(N3CCN(c4ccccc4OC)CC3)c(OC(F)F)c21		5.4 µM